Laboratory results from a protein production outcome set (Wang et al. 2014).

Experiment: label from the status in PepcDB records

MPLNVSFTNRNYDLDYDSVQPYFYCDEEENFYQQQQQSELQPPAPSEDIWKKFELLPTPPLSPSRRSGLCSPSYVAVTPFSLRGDNDGGGGSFSTADQLEMVTELLGGDMVNQSFICDPDDETFIKNIIIQDCMWSGFSAAAKLVSEKLASYQAARKDSGSPNPARGHSVCSTSSLYLQDLSAAASECIDPSVVFPYPLNDSSSPKSCASQDSSAFSPSSDSLLSSTESSPQGSPEPLVLHEETPPTTSSDSEEEQEDEEEIDVVSVEKRQAPGKRSESGSPSAGGHSKPPHSPLVLKRCHVSTHQHNYAAPPSTRKDYPAAKRVKLDSVRVLRQISNNRKCTSPRSSDTEENVKRRTHNVLERQRRNELKRSFFALRDQIPELENNEKAPKVVILKKATAYILSVQAEEQKLISEEDLLRKRREQLKHKLEQLRNSCA
protein production: failed
